Compound potency records, mixed from different reports. Data source: NIAID ChemDB in PubChem.

Shared fields: tests on isolated targets; agent: HIV-1; target: Reverse transcriptase; method: nucleotide incorporation; measure: IC50

Conditions beyond the fields shown may differ between rows. Blank or dashed fields: not listed here. ICn: concentration for n% inhibition. a–b is a range or a potency band.

SMILES	changes	strain	value
Cc1cn([C@H]2C[C@H](F)[C@@H](COP(=O)(O)OP(=O)(O)OP(=O)(O)O)O2)c(=O)[nH]c1=O			<0.05 µM
CC(C)(C)Nc1cccnc1N1CCN(C(=O)c2cc3cc(F)ccc3[nH]2)CC1			<100 µM
Cc1ccc2[nH]c(C(=O)N3CCN(c4ncccc4NC(C)C)CC3)cc2c1			<100 µM
CC(=O)OC[C@]1(C)CC[C@]2(C)CC[C@]3(C)c4ccc5c(c4CC[C@@]3(C)[C@@H]2C1)CC[C@@H](OC(C)=O)C5(C)C			3.3 µM
O=C(O)C1=C[C@@H](O)[C@@H](O)[C@H](OC(=O)c2cc(O)c(O)c(O)c2)C1			>20 µg/mL
CCOc1ccccc1CCNC(=S)Nc1nccs1			>10 µg/mL
COC(=O)CCCC(=O)N1CCC(=C(c2cc(C)c(OC)c(C(=O)OC)c2)c2cc(C)c(OC)c(C(=O)OC)c2)CC1			>100 µM
CCCCCCC(O)C(=O)O[C@H]1CC(C)(C)[C@@H]2CC=C(C=O)C3[C@@H](O)OC(=O)[C@@]32[C@H]1O			>238 µM
O=C1OC2[C@@H](CO)O[C@@H](OC(=O)c3cc(O)c(O)c(O)c3)[C@H](OC(=O)c3cc(O)c(O)c4c3[C@@H]3C1=CC(=O)C(O)(O)C3(O)O4)[C@H]2O			>20 µg/mL
O=C1Nc2ccc(Cl)cc2C(C#CC2CCCCC2)(C(F)(F)F)O1	RT-K103N Y181C	A17	0.21 µM
Cn1cncc1CNC(=O)c1[nH]c2ccc(Cl)cc2c1S(=O)(=O)c1ccccc1			0.003–0.035 µM
Cc1cn([C@H]2CC[C@@H](COP(=O)(O)OP(=O)(O)OP(=O)(O)O)O2)c(=O)[nH]c1=O	RT-K65R		>50 µM
Oc1cc(O)c2c(c1)O[C@H](c1ccc(O)c(O)c1)[C@H](O)[C@H]2c1c(O)cc(O)c2c1O[C@H](c1ccc(O)c(O)c1)[C@H](O)C2			>20 µg/mL
CC1=CC[C@@]2(C)[C@@H]([C@@H]1C)[C@H]1CCC3[C@@]4(C)CC[C@H](O)C(C)(C)[C@@H]4CC[C@@]3(C)[C@]1(C)C[C@@H]2O			>45 µM
O=C(O[C@@H]1O[C@H](CO)[C@@H](O)[C@H](O)[C@H]1O)c1cc(O)c(O)c(O)c1			>20 µg/mL
COc1ccc(OC)c(C/C=C(\C)CC/C=C(\C)CC/C=C(\C)CC/C=C(\C)CC/C=C(\C)CCC=C(C)C)c1			23.5 µM
O=C(OC[C@H]1O[C@@H](OC(=O)c2cc(O)c(O)c(O)c2)[C@H](OC(=O)c2cc(O)c(O)c(O)c2)[C@@H](OC(=O)c2cc(O)c(O)c(O)c2)[C@@H]1OC(=O)c1cc(O)c(O)c(O)c1Oc1cc2c(c(O)c1O)-c1c(cc(O)c(O)c1O)C(=O)OC[C@H]1O[C@@H](OC(=O)c3cc(O)c(O)c(O)c3)[C@H](OC(=O)c3cc(O)c(O)c(O)c3)[C@@H](OC(=O)c3cc(O)c(O)c(O)c3)[C@@H]1OC2=O)c1cc(O)c(O)c(O)c1			>20 µg/mL
O=C(NCCc1ccccc1)Nc1ccccc1			>10 µg/mL
CCNc1cccnc1N1CCN(CCc2cc(C)c(O)c(C)c2)CC1			>100 µM
O=C(/C=C/c1ccc(O)c2c1[C@H](C(=O)O[C@H](Cc1ccc(O)c(O)c1)C(=O)O)[C@@H](c1ccc(O)c(O)c1)O2)O[C@H](Cc1ccc(O)c(O)c1)C(=O)O			>20 µg/mL
CC(C)Nc1cccnc1N1CCN(C(=O)c2ccc[nH]2)CC1			<100 µM
Oc1cc(O)c2c(c1)O[C@H](c1ccc(O)c(O)c1)[C@H](O)[C@H]2c1c(O)cc(O)c2c1O[C@H](c1ccc(O)c(O)c1)[C@H](O)[C@H]2c1c(O)cc(O)c2c1O[C@H](c1ccc(O)c(O)c1)[C@H](O)C2			>20 µg/mL
O=C1NCC(CCC2(C(F)(F)F)OC(=O)Nc3ccc(Cl)cc32)O1	RT-K103N Y181C	A17	1.9 µM
O=C(OC[C@H]1O[C@@H](OC(=O)c2cc(O)c(O)c(O)c2)[C@H](OC(=O)c2cc(O)c(O)c(O)c2)[C@@H](OC(=O)c2cc(O)c(O)c(O)c2)[C@@H]1OC(=O)c1cc(O)c(O)c(O)c1)c1cc(O)c(O)c(O)c1			>20 µg/mL
CC(C)Nc1cccnc1N1CCN(C(=O)c2cc3cc(OCc4ccccc4)ccc3[nH]2)CC1			<100 µM
N#CC1C=Cc2ccccc2N1C(=O)Oc1ccc(Cl)cc1			>50 µM
COC(=O)N1CCC(=C(c2cc(Cl)c(OC)c(C(=O)O)c2)c2cc(Cl)c(OC)c(C(=O)O)c2)CC1			>100 µM
CCCCOC(=O)N1c2ccccc2C=CC1C#N	RT-P236L		4.3 µM
O=C(OC[C@H]1O[C@@H](OC(=O)c2cc(O)c(O)c(O)c2)[C@H](O)[C@@H](O)[C@@H]1O)c1cc(O)c(O)c(O)c1			>20 µg/mL
Cc1nnc(NC(=O)NCCc2ccccc2)s1			>10 µg/mL
N#CN=C(N)c1[nH]c2ccc(Cl)cc2c1S(=O)(=O)c1ccccc1			0.003–0.035 µM
CC(C)Nc1cccnc1N1CCN(C(=O)c2cc3ccc(N(C)C)cc3[nH]2)CC1			<100 µM
O=C(NCc1ccncc1)c1[nH]c2ccc(Cl)cc2c1Sc1ccccc1			0.003–0.035 µM
O=C(O[C@@H]1[C@H](c2c(O)cc(O)c3c2O[C@H](c2ccc(O)c(O)c2)[C@H](OC(=O)c2cc(O)c(O)c(O)c2)C3)c2c(O)cc(O)c([C@H]3c4c(O)cc(O)cc4O[C@H](c4ccc(O)c(O)c4)[C@@H]3OC(=O)c3cc(O)c(O)c(O)c3)c2O[C@@H]1c1ccc(O)c(O)c1)c1cc(O)c(O)c(O)c1			>20 µg/mL
Nc1nc2c(ncn2COC(CO)COP(=O)(O)OP(=O)(O)OP(=O)(O)O)c(=O)[nH]1			20 µM
CCc1cc(NCc2nc3c(C)ccc(C)c3o2)c(=O)[nH]c1C	RT-K103N Y181C Y188C		>282 µM
CS(=O)(=O)Nc1cccc(CNC(=O)c2[nH]c3ccc(Cl)cc3c2S(=O)(=O)c2ccccc2)c1			0.003–0.035 µM
O=C(O)C1=C[C@@H](OC(=O)c2cc(O)c(O)c(O)c2)[C@@H](OC(=O)c2cc(O)c(O)c(O)c2)[C@H](OC(=O)c2cc(O)c(O)c(O)c2)C1			>50 µg/mL
O=C(Nc1cccnc1)c1[nH]c2ccc(Cl)cc2c1Sc1ccccc1			0.003–0.035 µM
O=C(NCCc1ccccc1)Nc1cnccn1			>10 µg/mL
O=C(OC[C@H]1O[C@@H](OC(=O)c2cc(O)c(O)c(O)c2)[C@H](OC(=O)c2cc(O)c(O)c(O)c2)[C@@H](O)[C@@H]1O)c1cc(O)c(O)c(O)c1			>20 µg/mL
O=C(O)C1=C[C@@H](O)[C@@H](O)[C@H](OC(=O)c2cc(O)c(O)c(OC(=O)c3cc(O)c(O)c(O)c3)c2)C1			>20 µg/mL
COC(=O)c1cc(C(=C2CCN(C(=O)OC)CC2)c2cc(C)c(OC)c(C(=O)OC)c2)cc(C)c1OC			>100 µM
CC(C)Nc1cccnc1N(C)C1CCN(C(=O)c2cc3ccccc3[nH]2)C1			>100 µM
CCNc1cccnc1N(C)CCCN(C)C(=O)c1cc2ccccc2[nH]1			<100 µM
O=C1OCC2OC(=O)c3cc(O)c(O)c(O)c3-c3c(O)c(O)c(O)c4c3C(=O)OC(C2OC(=O)c2cc(O)c(O)c(O)c2-c2c1cc(O)c(O)c2O)C1OC(=O)c2c-4c(O)c(O)c(O)c2[C@@H]1O			>20 µg/mL
CC(C)OC(=O)N1c2ccccc2C=CC1C#N	RT-P236L		1.2 µM
CS(=O)(=O)Nc1cccnc1N1CCN(C(=O)c2cc3ccccc3[nH]2)CC1			>100 µM
COc1ccc2c(c1)C=CC(C#N)N2C(=O)OC(C)C			17.5 µM
O=C(NCCc1ccccc1)Nc1ncccn1			>10 µg/mL
COc1ccc2cc(C(=O)N3CCN(c4ncccc4NC(C)C)CC3)[nH]c2c1			<100 µM
Cc1cn([C@H]2C[C@H](N)[C@@H](COP(=O)(O)OP(=O)(O)OP(=O)(O)O)O2)c(=O)[nH]c1=O			<0.05 µM
N#CC1C=Cc2ccccc2N1C(=O)C1=CC2C=CC=CC2S1			>50 µM
CC(C)Nc1cccnc1N1CCN(C(=O)c2cc3cc(N)ccc3[nH]2)CC1			<100 µM
COc1ccc2c(c1)C=CC(C#N)N2C(=O)OCC(C)C			13.8 µM
O=c1ccn(COCCOP(=O)(O)OP(=O)(O)OP(=O)(O)O)c(=O)[nH]1			0.86 µM
Oc1cc(O)c2c(c1)O[C@H](c1ccc(O)c(O)c1)[C@H](O)[C@H]2c1c(O)cc(O)c2c1O[C@H](c1ccc(O)c(O)c1)[C@H](O)C2			>20 µg/mL
CC(C)=CCN1Cc2cccc3[nH]c(=S)n(c23)C[C@@H]1C	RT-Y188L		122.4 µM
CC1(C)CC[C@]2(C(=O)O)CC[C@]3(C)C(=CC[C@@H]4[C@@]5(C)CC[C@H](O)C(C)(C)[C@@H]5CC[C@]43C)[C@@H]2C1			3.1 µM
N#CC1C=Cc2ccccc2N1C(=O)OC1CCCC1			>50 µM
Oc1cc(O)c2c(c1)O[C@@]1(c3ccc(O)c(O)c3)Oc3cc(O)c4c(c3[C@@H]2[C@H]1O)O[C@H](c1ccc(O)c(O)c1)[C@H](O)C4			>20 µg/mL
Cc1ccc(S(=O)(=O)n2c(=O)[nH]c3ccc(Cl)cc32)cc1C	Wild type		0.004 µM
COc1ccc2c(c1)C=CC(C#N)N2C(=O)c1ccco1			>50 µM
CCCCCCCCC(O)C(=O)O[C@H]1CC(C)(C)[C@@H]2CC=C(C=O)C3[C@@H](O)OC(=O)[C@@]32[C@H]1O			91 µM
CC1=C[C@H](O)[C@@]2(C)C(C3CCC4[C@@]5(C)CC[C@H](O)C(C)(C)C5CC[C@@]4(C)[C@]3(C)C[C@@H]2O)[C@@H]1C			>45 µM
Nc1ccn([C@@H]2CS[C@H](COP(=O)(O)OP(=O)(O)OP(=O)(O)O)O2)c(=O)n1			0.3 µM

A second listing of 10 rows from above:

SMILES	changes	strain	value
CC(C)Nc1cccnc1N1CCN(C(=O)c2cc3ccc(N(C)C)cc3[nH]2)CC1			<100 µM
CC(C)(C)Nc1cccnc1N1CCN(C(=O)c2cc3cc(F)ccc3[nH]2)CC1			<100 µM
CCc1cc(NCc2nc3c(C)ccc(C)c3o2)c(=O)[nH]c1C	RT-K103N Y181C Y188C		>282 µM
COc1ccc2c(c1)C=CC(C#N)N2C(=O)OCC(C)C			13.8 µM
O=C(NCc1ccncc1)c1[nH]c2ccc(Cl)cc2c1Sc1ccccc1			0.003–0.035 µM
Cc1ccc2[nH]c(C(=O)N3CCN(c4ncccc4NC(C)C)CC3)cc2c1			<100 µM
CC(C)Nc1cccnc1N1CCN(C(=O)c2cc3cc(N)ccc3[nH]2)CC1			<100 µM
CC1(C)CC[C@]2(C(=O)O)CC[C@]3(C)C(=CC[C@@H]4[C@@]5(C)CC[C@H](O)C(C)(C)[C@@H]5CC[C@]43C)[C@@H]2C1			3.1 µM
N#CC1C=Cc2ccccc2N1C(=O)Oc1ccc(Cl)cc1			>50 µM
Cc1cn([C@H]2C[C@H](F)[C@@H](COP(=O)(O)OP(=O)(O)OP(=O)(O)O)O2)c(=O)[nH]c1=O			<0.05 µM